A mixed list of measured activities; the numbers were collected in NIAID ChemDB.

Shared fields: enzyme or target tests; agent: HIV-1; target: Reverse transcriptase; read-out: IC50

Blank or dashed fields: not listed here. Neighbouring rows are from separate reports. ICn is the concentration giving n% inhibition.

SMILES	strain	mutations	result
Cc1cccc2c1nc(-c1cccnc1)n2Cc1c(F)cccc1F			>10 µM
CCOc1ccccc1N1CCN(C(=O)c2cc3cc4c(cc3[nH]2)OCO4)CC1	IIIB	RT-P236L	31.1 µM
Cc1c(Cc2c(Cl)cccc2Cl)nc(Sc2ccc(F)cc2F)[nH]c1=O		RT-K103N	>400 µM
COc1ccc(OC)c(C/C=C/c2cc(O)c(O)c(O)c2)c1			>100 µM
Cc1cccc2c1nc(-c1ccc(C#N)cc1)n2Cc1c(F)cccc1F			>10 µM
Cc1nc2ccccc2n1Cc1c(F)cccc1F			>10 µM
C[C@@H](CNC(=S)Nc1nc2ccccc2s1)c1ccccc1			>100 µM
COc1ccccc1N1CCN(C(=O)c2cc3cc4c(cc3[nH]2)OCO4)CC1	IIIB	RT-P236L	>50 µM
COc1ccc(Sc2nc(Cc3c(Cl)cccc3Cl)c(C)c(=O)[nH]2)cc1		RT-K103N	>400 µM
O=C(CSc1nnnn1-c1cc(Cl)ccc1Cl)Nc1ccccc1[N+](=O)[O-]			0.004 µM
Cc1c(Cc2c(Cl)cccc2Cl)nc(Sc2ccc(C#N)cc2)[nH]c1=O		RT-K103N	>400 µM
Cc1cccc2c1nc(-c1ccncc1)n2Cc1c(F)cccc1F			<10 µM
C/C=C/CSc1cc(NC(=S)c2ccsc2C)ccc1Cl		RT-V106A	10.1 µM
Cc1cccc(NC(=S)NC[C@@H](C)c2ccccc2)n1			>100 µM
O=C(CSc1nnnn1-c1c(Cl)cccc1Cl)Nc1ccccc1[N+](=O)[O-]		RT-K103N	0.04 µM
Cc1ccc(NC(=S)NC[C@@H](C)c2ccccc2)nc1			7.7 µM
Cc1cc(C)c(-n2nnnc2SCC(=O)Nc2ccc(C(N)=O)cc2C)c(C)c1			0.055 µM
CC(C(=O)CN1CCN(c2ccc(Br)cc2)CC1)N1C(=O)c2ccccc2C1=O			63.7 µM
CNc1ccc(Cl)cc1S(=O)(=O)c1ccccc1[N+](=O)[O-]		RT-L100I	5 µM
Cc1cccc2nc(-c3c(F)cccc3F)n(Cc3c(F)cccc3F)c12			>10 µM
COc1ccc(Sc2nc(Cc3c(Cl)cccc3Cl)c(C)c(=O)[nH]2)cn1		RT-K103N	>400 µM
Cc1cccc2c1nc(C(C)C)n2Cc1c(F)cccc1F			>10 µM
C[C@@H](NC(=S)Nc1ccccn1)c1cccc2ccccc12			1.21 µM
Cc1ccccc1-c1nc2ccccc2n1Cc1c(F)cccc1F			<10 µM
Cc1occc1C(=S)Nc1ccc(Cl)c(/C=N/OC(C)(C)C)c1		RT-L100I	25 µM
Cc1cccc2c1ncn2Cc1c(F)cccc1F			>10 µM
COc1ccc(Sc2nc(Cc3c(F)cccc3F)c(C)c(=O)[nH]2)cc1	WT		>400 µM
Cc1cccc2c1nc(C=O)n2Cc1c(F)cccc1F			>10 µM
Cc1c(Sc2ccccc2)n(COCCO)c(=O)[nH]c1=O		RT-Y188L	>5 µM
CC(C)=CCOc1cc(NC(=S)c2ccoc2C)ccc1Cl		RT-Y188L	>100 µM
CCc1c(Sc2ccccn2)n(COCc2ccccc2)c(=O)[nH]c1=O		RT-L100I	8 µM
Cc1ccc2nc(-c3c(F)cccc3F)n(Cc3c(F)cccc3F)c2c1			>10 µM
CC(C)Nc1cccnc1N1CCN(C(=O)c2cc3cc4c(cc3[nH]2)OCO4)CC1	IIIB	RT-Y181C	10.9 µM
Cc1cc(C)c(-n2nnnc2SCC(=O)Nc2ccc(Cl)cc2[N+](=O)[O-])c(C)c1		RT-K103N	0.012 µM
O=[N+]([O-])c1ccc2c(c1)nc(-c1c(F)cccc1F)n2Cc1c(F)cccc1F			>10 µM

For reference, 4 entries again:

SMILES,strain,mutations,result
COc1ccccc1N1CCN(C(=O)c2cc3cc4c(cc3[nH]2)OCO4)CC1,IIIB,RT-P236L,>50 µM
Cc1ccc2nc(-c3c(F)cccc3F)n(Cc3c(F)cccc3F)c2c1,,,>10 µM
Cc1cccc2c1nc(-c1ccncc1)n2Cc1c(F)cccc1F,,,<10 µM
CCOc1ccccc1N1CCN(C(=O)c2cc3cc4c(cc3[nH]2)OCO4)CC1,IIIB,RT-P236L,31.1 µM